Anti-infective test results gathered from many reports (values: NIAID ChemDB through PubChem).

All rows: whole-cell or culture tests; organism: HIV-1

Blank or dashed fields: not listed here.

compound,measure,conditions,cell line,strain or isolate,mutations,read by,value
Cc1ccccc1CNc1nc2cc(C(=O)NC(C)(CO)CO)ccc2n1C1CCCCCC1,EC50,2% FBS,H9,-,-,syncytia,4 µM
COCCOC12CCC(CC1)Cn1c2nc(C(=O)NCc2ccc(F)cc2)c(O)c1=O,EC50,pseudotyped,MT-2,NL4-3,(delta)nef,luciferase,0.01 µM
CC1(C)CC(NC(=O)C(=O)Nc2ccc(Cl)cc2)CC(C)(C)N1,EC50,-,TZM-bl,YTA,-,single cycle,8.1 µM
CC(C)C1=C2[C@H]3CC[C@@H]4[C@@]5(C)CC[C@H](OC(=O)[C@H]6C[C@@H](C(=O)O)C6(C)C)C(C)(C)[C@@H]5CC[C@@]4(C)[C@]3(C)CC[C@@]2(CC(=O)NCC(C)(C)NC(=O)c2ccc(CN3CCOCC3)cn2)CC1=O,EC50,-,MT-2,92HT599,-,p24 / ELISA,<1 µM
CC(C)=CCN1CC(C)Cn2c(=S)[nH]c3cccc1c32,EC50,-,CEM(SS) + CEM-SS,6R,-,cytopathic effect / XTT,0.85 µM
Cc1cccc(CNc2nc3cc(C(=O)NC(C)CO)ccc3n2C2CCCCCC2)c1C,EC50,20% FBS,H9,-,-,syncytia,5 µM
Cc1cc(S(=O)(=O)N2CCNC2=O)c(SC(=O)c2ccccc2)cc1Cl,EC50,-,CEM,-,-,cytopathic effect / XTT,51.7 µM
Cc1cc(C)cc(CNc2nc3cc(C(=O)NC(C)CO)ccc3n2C2CCCCCC2)c1,EC50,20% FBS,H9,-,-,syncytia,0.3 µM
CCN1C[C@H](C)n2c(c(O)c3c(=O)n(Cc4ccc(F)c(Cl)c4)nc(C(=O)NC)c32)C1=O,EC50,-,MT-4,IIIB,-,-,0.003 µM
CC(C)C1=C2[C@H]3CC[C@@H]4[C@@]5(C)CC[C@H](OC(=O)[C@H]6C[C@@H](C(=O)O)C6(C)C)C(C)(C)[C@@H]5CC[C@@]4(C)[C@]3(C)CC[C@@]2([C@@H](O)CNC(=O)C2(N)CC2)CC1=O,EC50,-,MT-2,92HT599,-,p24 / ELISA,<1 µM
NCC(=O)NCCN1CCC(NC(=O)C(=O)Nc2ccc(Cl)cc2)CC12CCCCC2,EC50,-,TZM-bl,YTA,-,single cycle,9.8 µM
O=c1ccn([C@@H]2O[C@H](CO)[C@](O)(C(F)(F)F)[C@H]2O)c(=O)[nH]1,EC50,-,MT-4,-,-,-,>100 µM
Cc1cc(S(=O)(=O)n2cccc2)c(SC(C(=O)O)c2ccccc2)cc1Cl,EC50,-,CEM,-,-,cytopathic effect / XTT,>200 µM
Nc1ccn([C@@H]2O[C@H](CO)[C@](O)(C(F)(F)F)[C@H]2O)c(=O)n1,EC50,-,MT-4,-,-,-,>100 µM
Cc1cccc(CNc2nc3cc(C(=O)NC(C)(CO)CO)ccc3n2C2CCCCCC2)c1C,EC50,2% FBS,H9,-,-,syncytia,3 µM
C#CCOCn1c(Cc2cc(C(F)(F)F)cc(C(F)(F)F)c2)c(CC)c(=O)[nH]c1=O,EC50,-,MT-4,N119 (Y181C),-,MTT,100 µM
Cc1cc(CNC(=O)c2nc3n(c(=O)c2O)CC2CCC3(NC(=O)c3cccnn3)CC2)ccc1F,EC50,pseudotyped,MT-2,NL4-3,(delta)nef,luciferase,<0.001 µM
Cc1cc(C)c(Nc2nc(NC3CCN(Cc4ccc([N+](=O)[O-])cc4)CC3)nc3nc[nH]c23)c(C)c1,EC50,-,MT-4,IIIB,-,MTT,>21.8 µM
CCOCn1c(Cc2cc(C(F)(F)F)cc(C(F)(F)F)c2)c(C(C)C)c(=O)[nH]c1=O,EC50,-,MT-4,A17,K103N + Y181C,MTT,>100 µM
Cc1cc(C)c(Nc2nc(NC3CCN(Cc4ccccc4C#N)CC3)nc3nc[nH]c23)c(C)c1,EC50,-,MT-4,RES056,-,MTT,>125 µM
C/C(=C/CC[C@@H](C)[C@H]1CC[C@@]2(C)[C@@H]3CC[C@@H](C(C)(C)O)[C@@]4(CCC(=O)O)C[C@@]34CC[C@]12C)C(=O)O,EC50,-,C8166,-,-,cytopathic effect,0.52 µg/mL
Cc1cc(C)c(Nc2nc(NC3CCN(Cc4ccc(F)cc4)CC3)nc3nc[nH]c23)c(C)c1,EC50,-,MT-4,IIIB,-,MTT,>13.97 µM
NCCCCC(=O)NCCN1CCC(NC(=O)C(=O)Nc2ccc(Cl)cc2)CC12CCCCC2,EC50,-,TZM-bl,YTA,-,single cycle,14 µM
CN(C[C@@H](CCN1CCC2(CC1)CS(=O)c1ccccc12)c1ccc(Cl)c(Cl)c1)S(=O)(=O)c1ccc(-c2ccon2)s1,EC50,-,PBMC,YU2,-,-,<12.5 µM
CCN(CC)CCOc1ccc(NC(=O)COc2ccccc2C(=O)c2ccccc2)cc1,EC50,-,C8166,RF,-,p24,0.0033 µM
CCOCn1c(Cc2c(F)ccc(F)c2F)c(CC)c(=O)[nH]c1=O,EC50,-,MT-4,A17,K103N + Y181C,MTT,87 µM
Cc1cc(OCCCN(C)C)ccc1NC(=O)Cc1ccc(Cl)cc1C(=O)c1ccccc1,EC50,-,C8166,RF,-,syncytia,0.0344 µM
CN(C[C@@H](CCN1CCC2(CC1)CS(=O)c1ccccc12)c1ccc(Cl)c(Cl)c1)S(=O)(=O)c1ccccc1,EC95,-,PBMC,YU2,-,-,<12 µM
CC(C)C1=C2[C@H]3CC[C@@H]4[C@@]5(C)CC[C@H](OC(=O)[C@H]6C[C@@H](C(=O)O)C6(C)C)C(C)(C)[C@@H]5CC[C@@]4(C)[C@]3(C)CC[C@@]2(CC(=O)NC[C@H](C)NC(=O)c2ccc(Cl)cc2)CC1=O,EC50,-,MT-2,92HT599,-,p24 / ELISA,<1 µM
C[C@@H]1CCO[C@H]2Cn3cc(C(=O)NCc4ccc(F)cc4F)c(=O)c(O)c3C(=O)N12,EC50,-,CEM-GXR,NL4-3,T97A E138K G140S Q148H,GFP,0.073 µM
CCN(CC)CCOc1ccc(NC(=O)COc2ccccc2C(=O)c2ccc(F)cc2)cc1,EC50,-,MT-4,RF,-,cytopathic effect,1.293 µM
CC(C)C1=C2[C@H]3CC[C@@H]4[C@@]5(C)CC[C@H](OC(=O)[C@H]6C[C@@H](C(=O)O)C6(C)C)C(C)(C)[C@@H]5CC[C@@]4(C)[C@]3(C)CC[C@@]2(CCNC(=O)c2ccc(F)cc2)CC1=O,EC50,-,MT-2,92HT599,-,p24 / ELISA,<1 µM
CC(C)C[C@H](NC(=O)[C@@H](NC(=O)[C@H](Cc1c[nH]c2ccccc12)NC(=O)CCC(=O)Nc1ccn([C@H]2CC[C@@H](CO[Si](c3ccccc3)(c3ccccc3)C(C)(C)C)O2)c(=O)n1)C(C)C)[C@@H](O)CC(=O)NC(Cc1ccccc1)c1ccccc1,EC50,-,MT-4,-,-,syncytia,10 µM
O=C(O)c1cc(C(O)(c2ccc(O)c(C(=O)O)c2)c2ccc(O)c(C(=O)O)c2)ccc1O,EC50,-,MT-4,IIIB,-,cytopathic effect / MTT,>40 µg/mL
Cc1cc(S(=O)(=O)NC2=NCCN2)c(SCC(N)=O)cc1Cl,EC50,-,CEM,-,-,cytopathic effect / XTT,113 µM
O=C(Nc1ccc(Cl)cc1)C(=O)NC1CCNC2(CCCCC2)C1,EC50,-,TZM-bl,YTA,-,single cycle,14 µM
Cc1cc(S(=O)(=O)n2cccc2)c(SC/C(=N\NC(=O)Nc2ccccc2)c2ccc(Br)cc2)cc1Cl,EC50,-,CEM,-,-,cytopathic effect / XTT,5.1 µM
Cc1ccc(NC(=O)C(=O)NC2CCNC3(CCCCC3)C2)cc1,EC50,-,TZM-bl,YTA,-,single cycle,24 µM
Nc1ccn([C@H]2CC[C@@H](CO)O2)c(=O)n1,EC50,-,MT-4,-,-,syncytia,0.1 µM
Nc1ncnc2c1ccn2[C@H]1C=C[C@@H](CO)C1,EC50,-,CEMx174 + CEM,LAI,-,RT activity,2.5 µM
Cc1cc(C)c(Nc2nc(NC3CCN(Cc4ccc(Cl)c(Cl)c4)CC3)nc3nc[nH]c23)c(C)c1,EC50,-,MT-4,IIIB,-,MTT,≥45.25 µM
O=C(O)c1cc(Cc2cc(C(c3ccc(O)c(C(=O)O)c3)c3ccc(O)c(C(=O)O)c3)cc(C(=O)O)c2O)ccc1O,EC50,-,MT-4,IIIB,-,cytopathic effect / MTT,2.8 µg/mL
CC(C)C1=C2[C@H]3CC[C@@H]4[C@@]5(C)CC[C@H](OC(=O)[C@H]6C[C@@H](C(=O)O)C6(C)C)C(C)(C)[C@@H]5CC[C@@]4(C)[C@]3(C)CC[C@@]2(CC(=O)NCCc2ccc(Cl)cc2)CC1=O,EC50,-,MT-2,92HT599,-,p24 / ELISA,<1 µM
O=C(COc1ccc(Cl)cc1C(=O)c1ccccc1)c1cc2ccccc2[nH]1,EC50,-,C8166,RF,-,p24,>12.8 µM
CCOCn1c(Cc2c(F)c(F)cc(F)c2F)c(CC)c(=O)[nH]c1=O,EC50,-,MT-4,A17,K103N + Y181C,MTT,54 µM
Cc1cccc(CNc2nc3cc(C(=O)NC(C)CO)ccc3n2C2CCCCCC2)c1F,EC50,2% FBS,H9,-,-,syncytia,0.8 µM
O=C(COc1ccc(Cl)cc1C(=O)c1ccccc1)Nc1ccccc1,EC50,-,C8166,RF,-,syncytia,0.0005 µM
CCCCCCCCCCCCCCCCOCCCOP(=O)(O)CO[C@H](CO)Cn1cnc2c(N)ncnc21,EC50,-,MT-2,-,RT-K65R,p24,0.16 µM
CN(C[C@@H](CCN1CCC2(CC1)CS(=O)(=O)c1ccccc12)c1ccc(Cl)c(Cl)c1)S(=O)(=O)c1ccccc1,EC50,-,PBMC,YU2,-,-,<12 µM
C=C(C)[C@@H]1CC[C@@H]2C(=CC[C@]3(C)[C@@H]([C@H](C)CC/C=C(/C)C(=O)O)CC[C@@]23C)[C@@]1(C)CCC(=O)O,EC50,-,C8166,-,-,cytopathic effect,8.23 µg/mL
O=C(O)c1cc(C(c2ccc(O)c(C(=O)O)c2)c2ccc(O)c(C(=O)O)c2)ccc1O,EC50,-,MT-4,IIIB,-,cytopathic effect / MTT,3.9 µg/mL
Nc1nc2c(ccn2[C@H]2C=C[C@@H](CO)C2)c(=O)[nH]1,EC50,-,PBMC,IIIB,-,RT activity,7 µM
COc1cc2c(cc1Cc1cccc(Cl)c1F)c(=O)c(C(=O)O)cn2[C@H](CO)C(C)C,EC50,-,CEM-GXR,NL4-3,T97A E138K G140S Q148H,GFP,1 µM
CN(C)C(=O)C(=O)NC12CCC(CC1)Cn1c2nc(C(=O)NCc2cc(Cl)cc(OC(F)(F)F)c2)c(O)c1=O,EC50,pseudotyped,MT-2,NL4-3,(delta)nef,luciferase,<0.01 µM
CC(C)C1=C2[C@H]3CC[C@@H]4[C@@]5(C)CC[C@H](OC(=O)[C@H]6C[C@@H](C(=O)O)C6(C)C)C(C)(C)[C@@H]5CC[C@@]4(C)[C@]3(C)CC[C@@]2(CCNCc2ccc(Cl)cc2O[C@@H]2CCOC2)CC1=O,EC50,-,MT-2,92HT599,-,p24 / ELISA,<1 µM
Cc1nn(C)c(C)c1CN(C)C(=O)C(=O)NC12CCC(CC1)Cn1c2nc(C(=O)NCc2ccc(F)cc2)c(O)c1=O,EC50,pseudotyped,MT-2,NL4-3,(delta)nef,luciferase,<0.01 µM
O=C(NCc1ccc(F)cc1)c1nc(N2CCCCS2(=O)=O)c2cccnc2c1O,EC50,-,MT-4,IIIB,-,-,0.0087 µM

The last 4 rows once more:

compound,measure,conditions,cell line,strain or isolate,mutations,read by,value
CN(C)C(=O)C(=O)NC12CCC(CC1)Cn1c2nc(C(=O)NCc2cc(Cl)cc(OC(F)(F)F)c2)c(O)c1=O,EC50,pseudotyped,MT-2,NL4-3,(delta)nef,luciferase,<0.01 µM
CC(C)C1=C2[C@H]3CC[C@@H]4[C@@]5(C)CC[C@H](OC(=O)[C@H]6C[C@@H](C(=O)O)C6(C)C)C(C)(C)[C@@H]5CC[C@@]4(C)[C@]3(C)CC[C@@]2(CCNCc2ccc(Cl)cc2O[C@@H]2CCOC2)CC1=O,EC50,-,MT-2,92HT599,-,p24 / ELISA,<1 µM
Cc1nn(C)c(C)c1CN(C)C(=O)C(=O)NC12CCC(CC1)Cn1c2nc(C(=O)NCc2ccc(F)cc2)c(O)c1=O,EC50,pseudotyped,MT-2,NL4-3,(delta)nef,luciferase,<0.01 µM
O=C(NCc1ccc(F)cc1)c1nc(N2CCCCS2(=O)=O)c2cccnc2c1O,EC50,-,MT-4,IIIB,-,-,0.0087 µM

Conditions beyond the fields shown may differ between rows. ECn is the concentration giving n% inhibition of infection, replication or growth.